Measured values: PMC6146907 (Chemnanomat, 2018)

Assay: general procedure: Fmoc solid-phase peptide synthesis; H-L-Cys(Trt)-2-chlorotrityl resin (0.49 mmol/g); HBTU, DIPEA
Settings: whole synthesis, 210 nm

| Substance | purity (crude or final not stated) [%] |
| --- | --- |
| Ac-CEECEG L AEEEC-OH | 91 |
| PEPTIDE1{[ac].C.E.E.E.G.L.A.E.E.E.C}$$$$V2.0 | 90 |
| PEPTIDE1{[ac].C.E.E.G.L.A.E.E.C}$$$$V2.0 | 92 |

Strings that start with PEPTIDE1 are HELM notation: dots part the residues, brackets hold end groups and non-standard residues.
